Experimental data: US20160356776

Target: his-tagged recombinant CFP-SNAP-25-YFP chimera protein (purified from E. coli), P60881

B1: botulinum neurotoxin E (BoNT/E) (protein)
chain 1: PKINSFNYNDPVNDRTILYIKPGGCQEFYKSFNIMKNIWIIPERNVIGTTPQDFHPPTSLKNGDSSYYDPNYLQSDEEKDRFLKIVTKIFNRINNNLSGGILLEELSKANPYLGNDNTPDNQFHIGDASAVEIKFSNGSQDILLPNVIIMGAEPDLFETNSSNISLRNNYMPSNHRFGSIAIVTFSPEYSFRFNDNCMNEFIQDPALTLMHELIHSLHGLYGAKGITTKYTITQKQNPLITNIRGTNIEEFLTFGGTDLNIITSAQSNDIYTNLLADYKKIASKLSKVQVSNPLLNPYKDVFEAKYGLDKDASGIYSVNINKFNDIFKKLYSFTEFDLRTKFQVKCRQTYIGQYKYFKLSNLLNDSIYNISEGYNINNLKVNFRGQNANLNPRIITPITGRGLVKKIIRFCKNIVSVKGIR
chain 2: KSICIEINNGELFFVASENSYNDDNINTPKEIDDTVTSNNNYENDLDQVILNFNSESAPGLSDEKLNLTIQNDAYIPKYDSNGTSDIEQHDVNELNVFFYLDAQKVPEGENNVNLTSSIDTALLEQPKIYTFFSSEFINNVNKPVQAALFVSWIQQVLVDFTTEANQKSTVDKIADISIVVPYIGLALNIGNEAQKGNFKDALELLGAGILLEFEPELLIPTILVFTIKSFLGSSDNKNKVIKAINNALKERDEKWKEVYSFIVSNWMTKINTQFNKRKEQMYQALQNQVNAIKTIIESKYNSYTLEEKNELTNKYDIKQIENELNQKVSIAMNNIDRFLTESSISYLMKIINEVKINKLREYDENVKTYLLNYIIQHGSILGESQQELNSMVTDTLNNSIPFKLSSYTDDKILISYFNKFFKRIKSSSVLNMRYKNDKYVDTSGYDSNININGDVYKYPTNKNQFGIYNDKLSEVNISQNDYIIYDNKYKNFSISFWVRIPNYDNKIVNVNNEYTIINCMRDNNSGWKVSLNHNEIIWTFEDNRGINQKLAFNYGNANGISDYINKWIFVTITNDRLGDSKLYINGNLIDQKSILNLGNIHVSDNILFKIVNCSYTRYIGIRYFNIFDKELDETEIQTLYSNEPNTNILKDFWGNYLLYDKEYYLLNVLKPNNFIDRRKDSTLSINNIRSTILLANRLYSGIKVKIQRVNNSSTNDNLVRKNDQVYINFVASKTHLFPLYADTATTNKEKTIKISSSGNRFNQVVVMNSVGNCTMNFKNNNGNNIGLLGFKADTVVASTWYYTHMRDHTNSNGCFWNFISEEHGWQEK
FRET ratio against toxin concentration over time, plate reader: higher toxin concentration resulted in faster decrease of the FRET ratio
